The text below walks through data of patent US20230313299A1, “METHOD FOR DIAGNOSIS AND/OR PROGNOSIS OF LIVER DISEASE PROGRESSION AND RISK OF HEPATOCELLULAR CARCINOMA AND DISCOVERY OF THERAPEUTIC COMPOUNDS AND TARGETS TO TREAT LIVER DISEASE AND CANCER” (UNIVERSITÉ DE STRASBOURG, priority 2020, published 2023).

In this data set the test system is H3K27ac. Description: H3K27ac ChIPmentation-based ChIP-Seq with RNA-Seq of NASH and CHC patient liver tissue (Table S3). On the set-up: species or system human. The settings on record: CHC (HCV) patients liver tissue; negative changes indicate good prognosis genes, positive changes poor prognosis genes.

With DAB1, the “Epigenetic (H3K27ac) log2FC, HCV” value was −0.5361.
